Data source: PubChem BioAssay AID504761 (Drosophila RNAi Screening Center, 2011)

Test: 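Fly genes whose silencing reduces dengue virus type 2 infection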 (primary screen)
Cells: D.Mel-2 cells from Drosophila
Reagent: long dsRNA against Drosophila genes
Conditions: infection with dengue virus type 2; dose and infection time not stated
Measured: 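Cells stained for dengue envelope protein and imaged; percent of infected cells per well on duplicate plates, ranked by infection, with stained nuclei counted for cell number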
Reading the numbers: infection score: higher = more virus-infected cells
Active means: 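Low infection ranks in the two replicates (chance level up to 0.065) followed by a retest with a 1.5-fold or larger significant decrease, p below 0.05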
Meaning of the calls: active = confirmed: knock-down lowers infection; inactive = not picked or not confirmed
The deposit covers about 22,000 reagents; shown is a random part of those with a known target gene and a result. Of all reagents, 116 (0.52%) were called active. 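Calls depend on retest data that are not deposited; infection was ranked per plate without normalising between plates; the unit of the infection score is not given.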 Entries without a mark were called inactive. Reagents against one gene are numbered here. Further read-outs or replicates are left out here. Not stated in the record: the amount of reagent, the time to read-out.

For EloB, what does the deposit list?
infection score, replicate 1: 6.14

What did the screen give for GstO2 #1?
infection score, replicate 1: 15.2

For GstO2 #2, how do the results read?
infection score, replicate 1: 11.8

How did the screen score CG16953?
infection score, replicate 1: 5.88

What is on record for Tao #1?
infection score, replicate 1: 16.6

With Tao #2, what does the deposit list?
infection score, replicate 1: 8.22

For Tao #3, what does the deposit list?
infection score, replicate 1: 4.48

What did the screen give for Tao #4?
infection score, replicate 1: 6.62

How did the screen score UQCR-Q?
infection score, replicate 1: 4.21

2 consecutive entries already listed, quoted:
EloB | infection score, replicate 1: 6.14
GstO2 #1 | infection score, replicate 1: 15.2

The results go on:
What is on record for Remo?
infection score, replicate 1: 8.1

With Prp39 #1, how do the results read?
infection score, replicate 1: 2.72

How did the screen score Prp39 #2?
infection score, replicate 1: 2.33

What is on record for Rab5 #1?
infection score, replicate 1: 1.15

How did the screen score Rab5 #2?
infection score, replicate 1: 3.28

For Ifrd1 #1, what was measured?
infection score, replicate 1: 2.05

What is on record for Ifrd1 #2?
infection score, replicate 1: 5.72

What did the screen give for Dcr-1 #1?
infection score, replicate 1: 19

What did the screen give for Dcr-1 #2?
infection score, replicate 1: 19.1

How did the screen score CG7368 #1?
infection score, replicate 1: 5.18

What is on record for CG7368 #2?
infection score, replicate 1: 0.85

How did the screen score CG7368 #3?
infection score, replicate 1: 22.2
